Measured data: PubChem BioAssay AID624099 (ICCB-Longwood, 2012)

Aim: 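Host factors E2 relies on to silence an HPV18 LCR reporter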 (primary screen)
System: human C33A cervical carcinoma cells (HPV-negative) stably expressing BPV1 E2 and an HPV18 LCR luciferase reporter
Reagent: siRNA pool against human genes, 40 nM
Timing: 72 h
Measured: 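HPV18 LCR reporter light per well, converted to plate-wise z-scores that exclude control wells, and averaged over triplicate plates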
Direction: mean z-score and z-score: higher = stronger reporter signal, weaker E2 silencing
Hit rule: 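Mean z ≥ 2 together with z ≥ 2 in two or more of the three replicates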
Shown is a random part of about 21,000 reagents tested. 497 of all reagents (2.4%) were called active. 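Higher z means weaker E2 silencing; only reporter increases were scored, and knock-downs that hurt cell survival may mask genuine repressor factors.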 Reagent sequences are not shown.

HRNR: mean z-score = -1.91; z-score, replicate A = -1.51; z-score, replicate B = -2.1; z-score, replicate C = -2.11; outcome = inactive
CHST7: mean z-score = -0.82; z-score, replicate A = -1.04; z-score, replicate B = -0.68; z-score, replicate C = -0.75; outcome = inactive
ZBTB26: mean z-score = 0.74; z-score, replicate A = 0.83; z-score, replicate B = 1.16; z-score, replicate C = 0.23; outcome = inactive
SLC16A3: mean z-score = -1.12; z-score, replicate A = -1.09; z-score, replicate B = -1.23; z-score, replicate C = -1.04; outcome = inactive
UTP20: mean z-score = -0.69; z-score, replicate A = -0.84; z-score, replicate B = -0.72; z-score, replicate C = -0.51; outcome = inactive
NFKBIA: mean z-score = 0.72; z-score, replicate A = 0.56; z-score, replicate B = 0.88; z-score, replicate C = 0.73; outcome = inactive
CYP2C18: mean z-score = 0.38; z-score, replicate A = 0.55; z-score, replicate B = 0.61; z-score, replicate C = -0.02; outcome = inactive

The list goes on; the last 2 above are carried over.
NFKBIA: mean z-score = 0.72; z-score, replicate A = 0.56; z-score, replicate B = 0.88; z-score, replicate C = 0.73; outcome = inactive
CYP2C18: mean z-score = 0.38; z-score, replicate A = 0.55; z-score, replicate B = 0.61; z-score, replicate C = -0.02; outcome = inactive
SDCCAG8: mean z-score = -0.26; z-score, replicate A = -0.36; z-score, replicate B = -0.08; z-score, replicate C = -0.35; outcome = inactive
GGA1: mean z-score = 0.63; z-score, replicate A = 0.89; z-score, replicate B = 0.46; z-score, replicate C = 0.54; outcome = inactive
PRDM8: mean z-score = 0.84; z-score, replicate A = 1.08; z-score, replicate B = 0.82; z-score, replicate C = 0.62; outcome = inactive
KCNA3: mean z-score = 0.9; z-score, replicate A = 0.85; z-score, replicate B = 0.83; z-score, replicate C = 1.02; outcome = inactive
RESP18: mean z-score = -2.76; z-score, replicate A = -2.88; z-score, replicate B = -2.19; z-score, replicate C = -3.21; outcome = inactive
CAMK2B: mean z-score = -1.17; z-score, replicate A = -1.45; z-score, replicate B = -1.25; z-score, replicate C = -0.82; outcome = inactive
PLEKHN1: mean z-score = -1.13; z-score, replicate A = -0.99; z-score, replicate B = -1.39; z-score, replicate C = -1; outcome = inactive
OPRL1: mean z-score = 0.35; z-score, replicate A = 0.43; z-score, replicate B = 0.42; z-score, replicate C = 0.21; outcome = inactive
MIF: mean z-score = -0.04; z-score, replicate A = -0.09; z-score, replicate B = 0.03; z-score, replicate C = -0.05; outcome = inactive
NPIPB13: mean z-score = -0.23; z-score, replicate A = -0.01; z-score, replicate B = -0.19; z-score, replicate C = -0.48; outcome = inactive
SEC63: mean z-score = 1.33; z-score, replicate A = 1.81; z-score, replicate B = 1.21; z-score, replicate C = 0.96; outcome = inactive
CLCN4: mean z-score = -1.36; z-score, replicate A = -1.59; z-score, replicate B = -1.23; z-score, replicate C = -1.27; outcome = inactive
GTF2H2: mean z-score = 0.33; z-score, replicate A = 0.32; z-score, replicate B = 0.33; z-score, replicate C = 0.34; outcome = inactive
NAT14: mean z-score = 0.67; z-score, replicate A = 0.56; z-score, replicate B = 1.22; z-score, replicate C = 0.22; outcome = inactive
